Measured values from several laboratories, pooled; numbers as filed in NIAID ChemDB.

Shared fields: tests in culture; agent: HIV-1

ECn: concentration that inhibits the pathogen or its effect by n%.

structure	read-out	method	strain	cells	setting	mutations	result
CNc1c(Cl)cccc1S(=O)(=O)c1ccccc1[N+](=O)[O-]	EC50	XTT	IIIB	CEM + CEM-SS	-	-	4 µM
CC(C)(C)NC(=O)[C@@H]1CN(C(C)(C)c2cc3cnccc3o2)CCN1C[C@@H](O)C[C@@H](Cc1ccccc1)C(=O)N[C@H]1c2ccccc2C[C@H]1O	EC95	-	Q-60C(PR-L10I S37N R41K M46I I54V I62V L63P A71V V77I V82A L90M I93L)	-	-	PR-L10I S37N R41K M46I I54V I62V L63P A71V V77I V82A L90M I93L	>1 µM
COc1ccc2nc3cc(Cl)ccc3c(N)c2c1	EC50	MTT	-	MT-4	-	-	>1.8 µM
C=C(CC(=O)O)c1ccc(OCCc2cnc3c(c2)C(=O)N(C)c2cccnc2N3CC)c2ccccc12	EC50	p24	-	C8166	-	RT-K103N Y181C	0.1–1 µM
CCNC(=O)N1CCN(C)C(c2nc(C(=O)NCc3ccc(F)cc3)c(O)c(=O)n2C)C1	EC95	p24 / ELISA	IIIB	MT-4	50% human serum	-	>1 µM
CNc1ccc(Cl)cc1S(=O)(=O)c1ccccc1[N+](=O)[O-]	EC50	XTT	IIIB	CEM + CEM-SS	-	-	0.08 µM
CN1CCC[C@H]1c1nc(C(=O)NCc2ccc(F)cc2)c(O)c(=O)n1C	EC95	p24 / ELISA	IIIB	MT-4	10% FBS	-	>1 µM
Cc1cn([C@@H]2O[C@H](CO[Si](C)(C)C(C)(C)C)C3(OS(=O)(=O)C=C3N)[C@H]2O[Si](C)(C)C(C)(C)C)c(=O)n(CC(=O)N[C@@H](C)C(=O)OCc2ccccc2)c1=O	EC50	syncytia	IIIB	CEM	-	-	0.67 µM
N#C[C@]1(CO)O[C@@H](n2cnc3c(=O)[nH]cnc32)C[C@@H]1O	EC50	β-galactosidase	3TC-resistant (RT M184V)	MAGI	-	RT-M184V	6.06 µM
Nc1ncnc2c1ncn2[C@@H]1O[C@H](CO)C[C@@H]1F	EC50	thymidine uptake	-	ATH8	-	-	<5 µM
Fc1cccc(F)c1C1SCc2nc3ccccc3n21	EC50	cytopathic effect / MTT	TIBO R82150-resistant (RT K103N)	CEM	-	RT-K103N	15.6 µM
CCN1c2ncc(CCOc3ccc(C(=O)O)c4c3CCCC4)cc2C(=O)N(C)c2cccnc21	EC50	p24	-	C8166	-	RT-V106A	0.1–1 µM
Nc1ncnc2c1ncn2CCOCP(=O)(O)O	EC50	p24 / syncytia	BaL	Macrophage + Monocytes/macrophages	-	-	0.02 µM
Nc1nc2c(ncn2[C@H]2CO[C@@H](CO)O2)c(=O)[nH]1	EC50	cytopathic effect / XTT	LAI	MT-2	-	-	3.4 µM
C/C=C(/C)C(=O)O[C@]12C(C3C=C(CO)C[C@]4(O)C(=O)C(C)=CC4[C@@]3(O)[C@H](C)[C@H]1OC(C)=O)C2(C)C	EC50	cytopathic effect / microscopy / visual reading	LAV-1	MT-4	-	-	<125 µg/mL
CCN1c2ncc(CCOc3ccc(CC(=O)O)c4ccccc34)cc2C(=O)N(C)c2ccc(F)nc21	EC50	p24	-	C8166	-	RT-K103N Y181C	<0.1 µM
CC(C)CN(C[C@@H](O)[C@H](Cc1ccccc1)NC(=O)OCc1cncs1)S(=O)(=O)c1ccc2ncsc2c1	EC50	cytopathic effect / MTT	IIIB	CEM	-	-	0.009 µM
CCCCCCCCCCCCCC(=O)OC[C@@H](COP(=O)(O)OC[C@@H]1CC[C@H](n2cc(C)c(=O)[nH]c2=O)O1)OC(=O)CCCCCCCCCCCCC	EC50	p24	BRU	CEM	-	-	14 µM
Cc1cn([C@H]2C[C@H](N=[N+]=[N-])[C@@H](CO)O2)c(=O)[nH]c1=O	EC50	p24	NL4-3	MT-2	-	-	0.006 µM
Cc1cn([C@H]2C=C[C@@H](CO)O2)c(=O)[nH]c1=O	EC50	-	-	CEM + CEM-SS	-	-	0.049 µM
Nc1c2ccccc2nc2ccccc12	EC50	MTT	-	MT-4	-	-	>1.2 µM
CC(C)Nc1cccnc1N1CCN(C(=O)c2cc3cc(NS(C)(=O)=O)ccc3[nH]2)CC1	EC50	syncytia	HXB2	CEM	-	-	0.01 µg/mL
Cc1cn([C@H]2C[C@H](N=[N+]=[N-])[C@@H](CO)O2)c(=O)[nH]c1=O	EC50	cytopathic effect / trypan blue	NMR15	MT-4	-	-	0.003 µM
Cc1cc(C(O)(c2cc(C)c(O)c(C(=O)O)c2)c2cc(C)c(O)c(C(=O)O)c2)cc(C(=O)O)c1O	EC50	cytopathic effect	-	CEM	-	-	>200 µM
C/C=C(\C)C(=O)O[C@@]12[C@H](O)[C@@H](C)[C@@]3(O)[C@@H](C=C(COC(=O)CCCCCCC/C=C\C/C=C\CCCCC)C[C@]4(O)C(=O)C(C)=C[C@@H]34)[C@@H]1C2(C)C	EC50	cytopathic effect / microscopy / visual reading	LAV-1	MT-4	-	-	<7.81 µg/mL
CC1=C[C@H]([C@H](O)[C@H](C)[C@@H]2C[C@H]3O[C@]34[C@H]3CC[C@@H]5C(C)(C)O[C@H]6CC(=O)O[C@]65C[C@]3(O)CC[C@@]24C)OC1=O	EC50	syncytia	IIIB	C8166	-	-	42.66 µg/mL
CCCCCCCCCC(=O)O[C@@]12[C@H](OC(C)=O)[C@@H](C)[C@@]3(O)[C@@H](C=C(CO)C[C@]4(O)C(=O)C(C)=C[C@@H]34)[C@@H]1C2(C)C	EC50	cytopathic effect / microscopy / visual reading	LAV-1	MT-4	-	-	<0.0076 µg/mL
Cc1ccnc2c1NC(=O)c1cccnc1N2C1CC1	EC50	β-galactosidase	NNRTI-resistant (RT E138K)	MAGI	-	RT-E138K	0.065 µM
Cc1cn([C@H]2C[C@H](N=[N+]=[N-])[C@@H](COP(=O)(O)OCc3ccccc3)O2)c(=O)[nH]c1=O	EC50	-	-	CEM + CEM TK-	-	-	>100 µM
CCCCCCCCCC(=O)O[C@@H]1[C@@H](C)[C@@]2(O)C(C=C(CO)C[C@]3(O)C(=O)C(C)=CC23)C2C(C)(C)[C@@]21OC(=O)C(C)CC	EC50	cytopathic effect / microscopy / visual reading	LAV-1	MT-4	-	-	<7.81 µg/mL
Cc1cn([C@@H]2O[C@H](CO[Si](C)(C)C(C)(C)C)C3(OS(=O)(=O)C=C3N)[C@H]2O[Si](C)(C)C(C)(C)C)c(=O)n(CCOC(=O)[C@@H](N)C(C)C)c1=O	EC50	cytopathic effect / trypan blue	IIIB	MT-4	-	-	0.13 µM
Fc1ccc(F)c(C2OCc3nc4ccccc4n32)c1	EC50	cytopathic effect	IIIB	CEM	-	-	6.2 µM
Cc1occc1C(=S)Nc1ccc(Cl)c(/C=N/OC(C)(C)C)c1	EC50	syncytia	HXB2	CEM	-	-	0.02 µg/mL
Cc1cn([C@H]2C[C@H](N=[N+]=[N-])[C@@H](CO)O2)c(=O)[nH]c1=O	EC50	MTT	UG92029 (subtype A)	MT-4	-	-	0.001 µg/mL
CCCCCCCCCC(=O)O[C@@H]1[C@@H](C)[C@@]2(O)[C@@H](C=C(CO)C[C@]3(O)C(=O)C(C)=C[C@@H]23)[C@@H]2C(C)(C)[C@]12OC(=O)CCCCCCCCC	EC50	p24 / ELISA	IIIB	C8166	-	-	3.18 µg/mL
COc1ccc2nc3cc(Cl)ccc3c(N[C@@H]3CCCN4CCCC[C@H]34)c2c1	EC50	MTT	-	MT-4	-	-	>9.3 µM
CC(C)=CCN1Cc2cc(Cl)cc3[nH]c(=S)n(c23)C[C@@H]1C	EC50	syncytia	HXB2	CEM	-	-	0.09 µg/mL
CCN1c2ncc(CCOc3ccc(C(=O)O)c4ccccc34)cc2C(=O)Nc2c(C)cc(Cl)nc21	EC50	p24	-	C8166	-	RT-K103N Y181C	<0.1 µM
CN(Cc1ccccc1)C(=O)c1nc(C2COCCN2C)n(C)c(=O)c1O	EC95	p24 / ELISA	IIIB	MT-4	50% human serum	-	>8 µM
Cc1cn([C@H]2C[C@H](N=[N+]=[N-])[C@@H](COP(=O)(OCc3ccccc3)OCc3ccccc3)O2)c(=O)[nH]c1=O	EC50	cytopathic effect	-	CEM + CEM TK-	-	-	>100 µM
CC(C)CN(C[C@@H](O)[C@H](Cc1ccccc1)NC(=O)OCc1ccccc1)S(=O)(=O)c1ccc2nc(N)sc2c1	EC50	cytopathic effect / MTT	IIIB	CEM	-	-	0.015 µM
CC(C)c1cc2c(c(O)c1O)[C@@]1(C(=O)O)CCCC(C)(C)C1CC2	EC50	-	clinical isolate 1(C MDR X4)	PBMC	-	PR-L10I I15V K20R L24I M36I M46L I54V I62V L63P K70O V82A L89M	>1 µM
Fc1cccc(F)c1C1SCc2nc3ccccc3n21	EC50	cytopathic effect	IIIB	CEM	-	-	1.4 µM
C/C=C/C(=O)O[C@@H]1[C@@H](O)[C@]2(OC(C)=O)[C@H]([C@@H]3C=C(COC(C)=O)C[C@]4(O)C(=O)C(C)=C[C@H]4[C@@]13O)C2(C)C	EC50	p24 / ELISA	IIIB	C8166	-	-	2.18 µM
Cc1cn([C@H]2C[C@H](N=[N+]=[N-])[C@@H](CO)O2)c(=O)[nH]c1=O	EC50	plaque count	AZT-resistant A012D Clinical isolate	HT4 + HT4-6C	-	-	2 µM
c1ccc(C2OCc3nc4ccccc4n32)cc1	EC50	cytopathic effect / MTT	TIBO R82150-resistant (RT K103N)	CEM	-	RT-K103N	>3.38 µM
Cc1cccc(C)c1OCC(=O)N[C@@H](Cc1ccccc1)[C@H](O)CN(CC(C)C)S(=O)(=O)c1ccc2nc(N)sc2c1	EC50	cytopathic effect / MTT	IIIB	CEM	-	-	0.003 µM
Cc1cn([C@H]2C=C[C@@H](COP(=O)(OCc3ccccc3)OCc3ccccc3)O2)c(=O)[nH]c1=O	EC50	cytopathic effect	-	CEM + CEM-SS	-	-	4.4 µM
CC(C)(C)NC(=O)[C@@H]1CN(C(C)(C)c2cc3cnccc3o2)CCN1C[C@@H](O)C[C@@H](Cc1ccccc1)C(=O)N[C@H]1c2ccccc2OC[C@H]1O	EC50	-	4X (PR M46I L63P V82T I84V) Recombinant	-	-	PR-M46I L63P V82T I84V	<0.031 µM
CC(=O)O[C@@H]1[C@@H](C)[C@@]2(O)[C@@H](C=C(CO)C[C@]3(O)C(=O)C(C)=C[C@@H]23)[C@@H]2C(C)(C)[C@]12OC(=O)CCCCn1ccc(=O)n(CCCCOC(=O)[C@@]2(C)CC[C@]3(C)CC[C@]4(C)C(=CC(=O)[C@@H]5[C@@]6(C)CC[C@H](C)C(C)(C)[C@@H]6CC[C@]54C)[C@@H]3C2)c1=O	EC50	p24 / ELISA	IIIB	C8166	-	-	75.87 µM
C[C@@H](Cn1cnc2c(N)ncnc21)OCP(=O)(O)O	EC50	syncytia	HE	MOLT4 + MOLT-4	-	-	100 µM
Cc1cn([C@@H]2O[C@H](CO[Si](C)(C)C(C)(C)C)[C@@]3(OS(=O)(=O)C=C3N)[C@H]2O[Si](C)(C)C(C)(C)C)c(=O)n(CC(=O)N[C@@H](CCC(=O)O)C(=O)O)c1=O	EC50	cytopathic effect / trypan blue	IIIB	MT-4	-	-	5 µM
CCN1c2ncc(CCOc3ccc(CCC(=O)NN)c4ccccc34)cc2C(=O)N(C)c2cccnc21	EC50	p24	WT	C8166	-	-	<0.1 µM
COC(=O)CCC/C=C(\c1cc(C)c(OC)c(C(=O)OC)c1)c1cc(Cl)c(OC)c(C(=O)OC)c1	EC50	-	RF	CEM + CEM-SS	-	-	0.02 µM
CC(C)CN(C[C@@H](O)[C@H](Cc1ccccc1)NC(=O)OC1CCOC1)S(=O)(=O)c1ccc2ncsc2c1	EC50	cytopathic effect / MTT	IIIB	CEM	-	-	0.009 µM
c1cc(CN2CCCNCCNCCCNCC2)ccc1CN1CCCNCCNCCCNCC1	EC50	MTT	SDF-resistant (subtype B)	MT-4	-	-	0.008 µg/mL
CN1CCS(=O)CC1c1nc(C(=O)NCc2ccc(F)cc2)c(O)c(=O)n1C	EC95	p24 / ELISA	IIIB	MT-4	50% human serum	-	>1 µM
O=c1[nH]cnc2c1ncn2[C@H]1CC[C@@H](CO)O1	EC50	cytopathic effect / MTT	IIIB	MT-4	-	-	35.9 µM
COC(=O)c1cc(C(O)(c2ccc(O)c(C(=O)OC)c2)c2ccc(O)c(C(=O)OC)c2)ccc1O	EC50	cytopathic effect	-	CEM	-	-	>160 µM
COc1ccc2nc3cc(Cl)ccc3c(N3CCN(c4ccccc4)CC3)c2c1	EC50	MTT	-	MT-4	-	-	>100 µM
c1cc(CN2CCCNCCNCCCNCC2)ccc1CN1CCCNCCNCCCNCC1	EC50	cytopathic effect / MTT	NL4-3	MT-4	-	AMD3100-resistant	0.1 µg/mL
COC(=O)CCC/C=C(/c1ccc(OC)c(C(C)=O)c1)c1ccc(OC)c(C(=O)OC)c1	EC50	-	RF	CEM + CEM-SS	-	-	0.47 µM
CC(C)[C@H](NC(=O)c1ccc2ccccc2n1)C(=O)N[C@@H](Cc1ccccc1)[C@H](O)CN1CC[C@@H](OCc2ccncc2)C[C@H]1C(=O)NC(C)(C)C	EC50	p24 / ELISA / antigen	Wg3522	PBMC	-	-	0.015 µM
CC[C@H](C)[C@H](NC(=O)[C@H](C(C)C)[C@@H](O)[C@H](O)[C@H](CC1CCCCC1)NC(=O)[C@H](Cc1cnc[nH]1)NC(=O)COc1cccc2ccccc12)C(=O)NCc1ccccn1	EC90	p24	JR-CSF	PBMC	-	-	0.4 µM
Cc1ccccc1C(=O)N[C@@H](Cc1ccccc1)[C@H](O)CN(CC(C)C)S(=O)(=O)c1ccc2ncsc2c1	EC50	cytopathic effect / MTT	IIIB	CEM	-	-	0.013 µM

For reference, 4 entries again:

structure | read-out | method | strain | cells | setting | mutations | result
Cc1cn([C@H]2C=C[C@@H](CO)O2)c(=O)[nH]c1=O | EC50 | - | - | CEM + CEM-SS | - | - | 0.049 µM
Cc1cn([C@H]2C[C@H](N=[N+]=[N-])[C@@H](CO)O2)c(=O)[nH]c1=O | EC50 | plaque count | AZT-resistant A012D Clinical isolate | HT4 + HT4-6C | - | - | 2 µM
Fc1cccc(F)c1C1SCc2nc3ccccc3n21 | EC50 | cytopathic effect | IIIB | CEM | - | - | 1.4 µM
CC(C)c1cc2c(c(O)c1O)[C@@]1(C(=O)O)CCCC(C)(C)C1CC2 | EC50 | - | clinical isolate 1(C MDR X4) | PBMC | - | PR-L10I I15V K20R L24I M36I M46L I54V I62V L63P K70O V82A L89M | >1 µM

Lines come from different laboratories, so protocols vary. Blank or dashed fields: not listed here. a–b is a range or a potency band.